Measured values taken from US20070190523A1 (priority 2002, published 2007).

Legend:
[1] = tested on: 30N82I88D; conditions: read-out: Cell-based assay (MT-4) EC50/nM 30N82I88D; MT-4, 30N82I88D
[2] = target: WT (Human immunodeficiency virus type 1 group M subtype B, UniProt P04585); experiment: Cell-based assay (MT-4) EC50, WT; parameters: species or system HIV; conditions: read-out: Cell-based assay (MT-4) EC50/nM WT; MT-4, WT
[3] = tested on: wild-type HIV-1 strain IIIB; experiment: Anti-HIV-1 Cell Culture Assay (EC50), XTT, MT2 cells; format: cell-based

Nc1n[nH]c2ccc(CN3C(=O)N(Cc4cccc(C(=O)O)c4)[C@H](Cc4ccccc4)[C@H](O)[C@@H](O)[C@H]3Cc3ccccc3)cc12 [drawing 801]
EC50 [1]: > 600 nM

O=C1N(Cc2ccc3[nH]ncc3c2)[C@H](Cc2ccc(O)cc2)[C@H](O)[C@@H](O)[C@@H](Cc2ccc(O)cc2)N1Cc1ccc2[nH]ncc2c1
EC50 [2]: > 600 nM

CCCCOC(=O)[C@H](C)NP(=O)(COc1ccc(S(=O)(=O)N(CC(C)C)C[C@@H](O)[C@H](Cc2ccc(N)cc2)NC(=O)O[C@H]2CO[C@H]3OCC[C@H]32)cc1)N[C@@H](C)C(=O)OCCCC
EC50 [3]: 500 to 5000 nM
